Measured values from several laboratories, pooled; numbers as filed in NIAID ChemDB.

Common to all: growth or infection tests; agent: Hepatitis C virus; cells: Huh7; measure: EC90

Lines come from different laboratories, so protocols vary. An empty or dashed field is not shown. ECn: concentration that inhibits the pathogen or its effect by n%.

SMILES,strain or isolate,read by,result
CCC(NC(=O)C1CCC1C(=O)[C@@H](NC(=O)[C@@H](NC(=O)c1cnccn1)C1CCCCC1)C(C)(C)C)C(=O)C(=O)NC1CC1,-,PCR,>10 µM
ClCc1nc2ccccc2[nH]1,-,replicon / PCR,0.65 µM
C[C@@]1(F)[C@H](O)[C@@H](CO)O[C@H]1n1cnc2c(N)ncnc21,-,-,>100 µM
N#Cc1c(-c2ccccc2-c2ccco2)nc(SCc2nc3ccccc3[nH]2)[nH]c1=O,-,replicon / PCR,0.432 µM
C[C@@]1(O)[C@H](O)[C@@H](CO)O[C@H]1n1c2ncnc(N)c2c2c(N)ncnc21,-,replicon,>10 µM
O=C(O)c1c(-c2ccc(F)cc2)nc(NCc2nc3ccccc3[nH]2)[nH]c1=O,-,replicon / PCR,1.23 µM
NC(=O)c1[nH]nc([C@@H]2O[C@H](CO)[C@@H](O)[C@H]2O)c1O,-,PCR,3.8 µM
N#Cc1c(-c2ccc(F)cc2)nc(SCc2nc3ccccc3[nH]2)[nH]c1=O,-,replicon / PCR,0.563 µM
Cc1cn([C@H]2C[C@H](N=[N+]=[N-])[C@@H](CO)O2)c(=O)[nH]c1=O,-,replicon,>10 µM
C[C@@]1(O)[C@H](O)[C@@H](CO)O[C@H]1n1cnc2c(N)ncnc21,-,PCR,1.4 µM
CCOC(=O)CCc1ccccc1OP(=O)(OC[C@H]1O[C@@H](n2cnc3c(N)nc(N)nc32)[C@](C)(O)[C@@H]1O)Oc1ccccc1CCC(=O)OCC,-,PCR,>10 µM
Nc1ccn([C@@H]2O[C@H](CO)[C@@H](O)/C2=C/F)c(=O)n1,-,PCR,>100 µM
C[C@@]1(O)[C@H](O)[C@@H](CO)O[C@H]1n1cnc2c(N)ncnc21,CLONE A S282T,replicon,>100 µM
O=c1cnn([C@@H]2O[C@H](CO)[C@@H](O)[C@H]2O)c(=O)[nH]1,-,PCR,>100 µM
C[C@@]1(O)[C@H](O)[C@@H](CO)O[C@H]1n1c2ncnc(N)c2c2c(=O)[nH]c(=S)[nH]c21,-,replicon,>10 µM